Molecular target: Mouse (Mus musculus) ACE2 (residues 18–740) with His tag and human IgG1 Fc, mouse (Mus musculus), Q8R0I0-1 18-740
Test: FACS; apparent KD, printed as -log10(KD,app) = […]

In the case of SARS-CoV-1 Urbani RBD, yeast-displayed, the Kd is reported as 158 nM.

— paper PMC8967715, “ACE2 binding is an ancestral and evolvable trait of sarbecoviruses” (2022)
